According to patent publication US20240132578A1:

B1: 5136_H01 (PGT-131) (antibody, V domains shown)
VH: QVQLQESGPGLVKPSETLSLTCTVSGDSINTGHHYWGWVRQVPGKGPEWIAHIHYNTAVLHNPALKSRVTISIFTLKNLITLSLSNVTAADTAVYFCVRSGGDILYYIEWQKPHWFYPWGPGILVTVSS
VL: QSALTQPPSASGSLGQSLTISCSGTGSDIGSWNFVSWYQQFPGRAPNLIIFEVNRRRSGVPDRFSGSKSGNTASLTVSGLRSEDEAEYFCSSLSGRWDIVFGGGTKVTVL
B2: PGT-142 (4995_E20) (antibody, V domains shown)
VH: QVQLVQSGPEVKKPGSSVKVSCKASGNTFSKYDVHWVRQATGQGLEWVGWISHERDKTESAQRFKGRVTFTRDTSATTAYMELRGLTSDDTAIYYCTRGSKHRLRDYVLYDDYGLINYQEWNDYLEFLDVWGHGTAVTVSS
VL: DTVVTQSPLSLPVTPGEAASMSCSSTQSLRHSNGANYLAWYQHKPGQSPRLLIRLGSQRASGVPDRFSGSGSGTHFTLKISRVEAEDAAIYYCMQGLNRPWTFGKGTKLEIK
B3: PGT-143 (4980_N08) (antibody, V domains shown)
VH: B2 VH with V5E, P9A, I51M, R55G, T77S
VL: B2 VL with S24T, A85P
B4: 4970_K22 (PGT-144) (antibody, V domains shown)
VH: B2 VH with P9A, S30R, I51M, R55G, T69S, T74N, T77S, M81I, R98G, Y118Q
VL: B2 VL with P12S, S24T, E86D
B5: PGT-144 (4970_K22) (antibody, V domains shown)
VH: B2 VH with P9A, S30R, I51M, R55G, T69S, T74N, T77S, M81I, R98G, Y118Q
VL: B2 VL with P12S, S24T, E86D
B6: 5345_I01 (PGT-137) (antibody, V domains shown)
VH: EVHLEESGPGLVRPSETLSLTCTASGGSIRGGEWGDSDYHWGWVRHSPEKGLEWIGSIHWRGTTHYNAPFRGRGRLSIDLSRNQFSLRLTSVTAEDTAVYYCVKHKYHDIVMVVPIAGWFDPWGQGLQVTVSS
VL: EIMMTQSPAILSVSPGDRATLSCRASQSVKNNLAWYQKRPGQAPRLLIFDTSSRASGIPARFSGGGSGTEFTLTVNSMQSEDFATYYCQQYEEWPRTFGQGTKVEIK
B7: 5329_C19 (PGT-136) (antibody, V domains shown)
VH: QLQLQESGPGLVKPSETLSLTCTVSGGSMRGTDWGENDFHYGWIRQSSAKGLEWIGSIHWRGRTTHYKTSFRSRATLSIDTSNNRFSLTFSFVTAADTAVYYCARHKYHDIFRVVPVAGWFDPWGQGLLVTVSS
VL: EIVMTQSPPTLSVSPGETATLSCRASQNVKNNLAWYQLKPGQAPRLLIFDASSRAGGIPDRFSGSGYGTDFTLTVNSVQSEDFGDYFCQQYEEWPRTFGQGTKVDIK
B8: 5141_B17 (PGT-126) (antibody, V domains shown)
VH: QPQLQESGPGLVEASETLSLTCTVSGDSTAACDYFWGWVRQPPGKGLEWIGGLSHCAGYYNTGWTYHNPSLKSRLTISLDTPKNQVFLKLNSVTAADTAIYYCARFDGEVLVYHDWPKPAWVDLWGRGTLVTVSS
VL: QSALTQPPSASGSPGQSISISCTGTSNRFVSWYQQHPGKAPKLVIYGVNKRPSGVPDRFSGSKSGNTASLTVSGLQTDDEAVYYCSSLVGNWDVIFGGGTKLTVL
B9: 5114_A19 (PGT-128) (antibody, V domains shown)
VH: QPQLQESGPTLVEASETLSLTCAVSGDSTAACNSFWGWVRQPPGKGLEWVGSLSHCASYWNRGWTYHNPSLKSRLTLALDTPKNLVFLKLNSVTAADTATYYCARFGGEVLRYTDWPKPAWVDLWGRGTLVTVSS
VL: B8 VL with S19T, R28N, P37A, G47D, S86G

How the values were obtained:
Assay in all cases: cell-based or functional assay
[1] = target: 162-pseudovirus panel representing all major circulating HIV-1 subtypes
[2] = target: HIV-1 Env of the clade F pseudoviruses of the cross-clade 162-pseudovirus panel (n = 15)
[3] = target: HIV-1 clade A Env pseudoviruses of the cross-clade 162-pseudovirus panel (n=26)
[4] = target: HIV-1 clade AE Env pseudoviruses of the cross-clade 162-pseudovirus panel (n=10)
[5] = target: HIV-1 clade AG Env pseudoviruses of the cross-clade 162-pseudovirus panel (n=10)
[6] = target: HIV-1 clade B Env pseudoviruses of the cross-clade 162-pseudovirus panel (n=31)
[7] = target: HIV-1 clade C Env pseudoviruses of the cross-clade 162-pseudovirus panel (n=27)
[8] = target: HIV-1 clade D Env pseudoviruses of the cross-clade 162-pseudovirus panel (n=25)
[9] = target: HIV-1 clade F Env pseudoviruses of the cross-clade 162-pseudovirus panel (n=15)
[10] = target: panel of 22 HIV-1 pseudoviruses of Table 52
[11] = target: All HIV-1 Env pseudoviruses of the cross-clade 162-pseudovirus panel (n=162)
[12] = target: HIV-1 clade G Env pseudoviruses of the cross-clade 162-pseudovirus panel (n=15)
[13] = target: HIV-1 Env of the clade A pseudoviruses of the cross-clade 162-pseudovirus panel (n = 26)
[14] = target: HIV-1 Env of all pseudoviruses of the cross-clade 162-pseudovirus panel (n = 162)
[15] = target: HIV-1 Env of the clade AE pseudoviruses of the cross-clade 162-pseudovirus panel (n = 10)

Binder | Median IC50 (µg/ml) against viruses neutralized with an IC50 <50 µg/ml (section D) [3] | Median IC50 (µg/ml) against viruses neutralized with an IC50 <50 µg/ml (section D) [4] | Median IC50 (µg/ml) against viruses neutralized with an IC50 <50 µg/ml (section D) [5] | Median IC50 (µg/ml) against viruses neutralized with an IC50 <50 µg/ml (section D) [6] | Median IC50 (µg/ml) against viruses neutralized with an IC50 <50 µg/ml (section D) [7] | Median IC50 (µg/ml) against viruses neutralized with an IC50 <50 µg/ml (section D) [8] | Median IC50 (µg/ml) against viruses neutralized with an IC50 <50 µg/ml (section D) [9] | median IC50, pseudovirus neutralization [10] | Percent viruses neutralized, IC50 < 0.1 µg/ml [1] | Percent viruses neutralized, IC50 < 1 µg/ml [1] | Median IC50 (µg/ml) against viruses neutralized with an IC50 <50 µg/ml (section D) [12] | further results
B1 | 0.73 µg/mL | 0.21 µg/mL | 0.16 µg/mL | 0.5 µg/mL | 15.8 µg/mL | 2.67 µg/mL | 1.92 µg/mL |  |  |  |  | Percent viruses neutralized, IC50 < 50 µg/ml [1]: 40%; Median IC50 (µg/ml) against viruses neutralized with an IC50 <50 µg/ml [2]: 0.55 µg/mL
B2 |  |  |  |  |  |  |  | 0.25 µg/mL |  |  |  | 
B3 |  |  |  |  |  |  |  | 0.37 µg/mL |  |  |  | 
B4 |  |  |  |  |  |  |  |  | 3% |  |  | Median IC50 (µg/ml) against all viruses [11]: > 50 µg/mL; Median IC50 (µg/ml) against all viruses [4]: > 50 µg/mL; Median IC50 (µg/ml) against all viruses [5]: > 50 µg/mL; Median IC50 (µg/ml) against all viruses [6]: > 50 µg/mL; Median IC50 (µg/ml) against all viruses [8]: > 50 µg/mL; Median IC50 (µg/ml) against all viruses [12]: > 50 µg/mL
B5 |  |  |  |  |  |  |  | 0.16 µg/mL |  |  |  | 
B6 |  |  |  |  |  |  |  |  | 4% | 8% |  | Median IC50 (µg/ml) against all viruses [11]: > 50 µg/mL; Median IC50 (µg/ml) against all viruses [4]: > 50 µg/mL; Median IC50 (µg/ml) against all viruses [5]: > 50 µg/mL; Median IC50 (µg/ml) against all viruses [7]: > 50 µg/mL; Median IC50 (µg/ml) against all viruses [8]: > 50 µg/mL; Median IC50 (µg/ml) against all viruses [9]: > 50 µg/mL; Median IC50 (µg/ml) against all viruses [12]: > 50 µg/mL
B7 |  |  |  | 2.09 µg/mL | 0.28 µg/mL | 2.1 µg/mL |  |  | 3% | 6% | 7.54 µg/mL | Median IC50 (µg/ml) against viruses neutralized with an IC50 <50 µg/ml [13]: 2.34 µg/mL
B8 | 0.06 µg/mL | 19.6 µg/mL | 0.06 µg/mL | 0.17 µg/mL | 0.96 µg/mL | 0.33 µg/mL | 1 µg/mL |  | 40% | 50% | 0.17 µg/mL | Median IC50 (µg/ml) against viruses neutralized with an IC50 <50 µg/ml [1]: 0.04 µg/mL; Percent viruses neutralized, IC50 < 50 µg/ml [1]: 60%; Median IC50 (µg/ml) against viruses neutralized with an IC50 <50 µg/ml [14]: 0.04 µg/mL; Median IC50 (µg/ml) against viruses neutralized with an IC50 <50 µg/ml [2]: 0.05 µg/mL
B9 | 0.04 µg/mL | 1.47 µg/mL | 0.13 µg/mL | 0.07 µg/mL | 0.17 µg/mL | 0.12 µg/mL | 1.17 µg/mL |  | 50% | 60% | 0.12 µg/mL | Median IC50 (µg/ml) against viruses neutralized with an IC50 <50 µg/ml [1]: 0.02 µg/mL; Median IC50 (µg/ml) against viruses neutralized with an IC50 <50 µg/ml [15]: 0.05 µg/mL

Where a chain is given by its changes, count along the chain named.
